The text below walks through data of paper PMC3062530, “A Novel Mechanism of Programmed Cell Death in Bacteria by Toxin–Antitoxin Systems Corrupts Peptidoglycan Synthesis” (PLoS Biology, 2011).

The target in test [1] is PezTΔC242 (Streptococcus pneumoniae, UniProt Q97QZ1). In words: anion exchange chromatography of kinase reaction. The note with it: phosphoryl donor; 1 mM ATP, 0.25 mM UNAG, 5 mM MgCl2, 25 °C, pH 7.5.
In test [2] the target is T1, epsilon/zeta complex (Streptococcus pyogenes, UniProt Q54944). Put plainly: anion exchange chromatography of kinase reaction. The conditions noted are these: phosphoryl donor; 1 mM ATP, 0.25 mM UNAG, 5 mM MgCl2, 25 °C, pH 7.5, 24 h; antitoxin present.
Test [3] has as its target T1, epsilon/zeta complex. In words: X-ray crystal structure, […] Å (crystals soaked with […] UNAG). The note with it: UNAG in deep cleft of zeta toxin; antitoxin-bound complex.

On to `Nc1ncnc2c1ncn2[C@@H]1O[C@H](COP(=O)(O)OP(=O)(O)OP(=O)(O)O)[C@@H](O)[C@H]1O`, for which the “anion exchange chromatography of kinase reaction” value in test [1] is “UNAG kinases that form UDP-N-acetylglucosamine-3′-phosphate (UNAG-3P) from UNAG using ATP”; in test [2] it was “zeta toxin from S. pyogenes can catalyze the same reaction as PezT and modifies UNAG”.
In the case of `CC(=O)N[C@H]1[C@@H](OP(=O)(O)OP(=O)(O)OC[C@H]2O[C@@H](n3ccc(=O)[nH]c3=O)[C@H](O)[C@@H]2O)O[C@H](CO)[C@@H](O)[C@@H]1O` [UNAG], the “X-ray crystal structure, 2.7 Å (crystals soaked with 10 mM UNAG)” value in test [3] was “crystal structure of the epsilon/zeta TA complex from S. pyogenes bound to UNAG”.
